Measured data: PubChem BioAssay AID1259414 (Drosophila RNAi Screening Center, 2018)
The screen tested about 24,000 reagents; shown is a random part of those with a known target gene and a result. Over the whole deposit, about 1,210 (5%) got an active call. 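Inactive calls also include excluded dsRNAs with several or no targets, genes unexpressed in JW18, and well A1, regardless of score.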 Unmarked entries are inactive. Reagents against one gene are numbered here. Names joined by + are all predicted targets of the reagent.

Test: 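Fly genes that alter Wolbachia amount inside host cells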 (primary screen)
System: Drosophila JW18 cells infected with Wolbachia
Reagents: long dsRNA against Drosophila genes, 0.25 µg dsRNA per well of a 384-well plate
Timing: 5 days
Conditions: cells persistently infected with Wolbachia before knock-down; no added drug
Measurement: 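Automated imaging of bacterial rRNA staining divided by host cell count, reported as plate-normalised robust z-score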
Direction: Wolbachia per cell robust z: higher = more Wolbachia per host cell than the plate typical
Active means: 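Active if absolute robust z reaches 1.5 in two or more of three replicates, leaving out multi- or no-target dsRNAs, genes unexpressed in JW18 and A1 wells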

target	dsRNA no.	Wolbachia per cell robust z, rep 1	Wolbachia per cell robust z, rep 2	Wolbachia per cell robust z, rep 3
PPP4R2r	1	1.09	1.54	1.12
PPP4R2r	2	-0.0242	0.758	-1.03
PPP4R2r	3	-0.598	-0.0406	0.313
CG34447	1	0.618	-0.221	0.126
CG34447	2	-0.189	-0.625	-0.674
PIG-Q	1	1.28	-0.785	0.246
kappaTry	1	0.596	-1.15	-2.71
Vha36-3	1	1.5	-0.29	0.822
Vha36-3	2	0.0323	0.941	-0.0136
Scgbeta	1	-0.443	-2.12	-0.439
blw	1	0.678	1.45	-0.516
yem	1	-3.61	0.0978	-0.1
yem	2	0.0106	0.461	0.295
CG9121	1	0.209	-0.296	0.293
Rm62	1	0.946	0.677	-0.0858
Rm62	2	0.43	-0.279	-1
CG15629	1	-1.42	0.456	-1.5
CG15629	2	-0.956	1.02	0.526
CG15922	1	0.452	-0.924	-1.88
Df31	1	-0.104	0.765	0.039
Df31	2	-0.942	0.349	-0.789
Fhos	1	0.586	1.39	0.866
Fhos	2	0.224	-0.168	-0.0902
Fhos	3	-7.81 (active)	-1.57	-1.77
Fhos	4	-0.551	-0.306	0.136
Fhos	5	0.461	-0.799	-0.32
mus201 + Chrac-14	1	-1	-0.566	0.422
GlnRS	1	1.23	0.274	0.295

Just “Wolbachia per cell robust z, rep 2” (2 entries from above):
Df31 #1 = 0.765
Df31 #2 = 0.349
